{"source": "patent US10953028B2", "about": "“Method of treating heterotopic ossification” (THE REGENTS OF THE UNIVERSITY OF MICHIGAN, priority 2015, dated 2021)", "key": {"[1]": {"system": "Nfatc1-Cre/caACVR1fl:wt mice", "assay": "Genetic (congenital) HO model, ankle extra-skeletal bone by microCT"}, "burn/tenotomy mice": {"system": "burn/tenotomy mice", "assay": "Burn/tenotomy trauma-induced HO model (microCT, histology, immunostaining)", "format": "in vivo, mouse"}, "Hif1α": {"system": "Hif1α", "assay": "Hif1α protein (Western blot) in tendon-derived mesenchymal cells cultured in hypoxia", "format": "cell-based, mouse", "conditions": "PX-478 10 μM or rapamycin 5 μM, 0.5% oxygen"}, "[2]": {"conditions": "9 weeks, PX-478 100 mg/kg i.p., control = 1.0"}}, "data": [{"smiles": "N[C@@H](Cc1ccc([N+]([O-])(CCCl)CCCl)cc1)C(=O)O", "values": [{"measurement": "ankle extra-skeletal bone normalized volume", "setting": "[1]; PX-478 100 mg/kg every other day for 2 weeks, control = 1.0", "value": 0.32}, {"measurement": "ankle extra-skeletal bone volume", "setting": "[1]; PX-478 100 mg/kg every other day from birth for 2 weeks, 800 Hounsfield Units, control 6.8 mm^3", "value": 2.2, "unit": "mm^3"}, {"measurement": "Hif1α expression in vivo", "setting": "burn/tenotomy mice; 3 weeks after injury, PX-478", "value": "diminished"}, {"measurement": "cartilage anlagen (histologic evaluation)", "setting": "burn/tenotomy mice; 3 weeks after injury, PX-478", "value": "substantial decrease"}, {"measurement": "expression of Sox9 in vivo", "setting": "burn/tenotomy mice; 3 weeks after injury, PX-478", "value": "considerably diminished"}, {"measurement": "total HO volume", "setting": "burn/tenotomy mice; 5 weeks after injury, PX-478 100 mg/kg i.p. every other day, control 4.3 mm^3", "value": 1.5, "unit": "mm^3"}, {"measurement": "total HO volume", "setting": "burn/tenotomy mice; 9 weeks after injury, PX-478 100 mg/kg i.p. every other day, control 5.8 mm^3", "value": 2.3, "unit": "mm^3"}, {"measurement": "soft tissue HO volume", "setting": "burn/tenotomy mice; 9 weeks, PX-478 100 mg/kg i.p. every other day, control 0.90 mm^3", "value": 0.00, "unit": "mm^3"}, {"measurement": "soft tissue HO normalized volume", "setting": "burn/tenotomy mice; [2]", "value": 0.0}, {"measurement": "total HO normalized volume", "setting": "burn/tenotomy mice; [2]", "value": 0.4}, {"measurement": "adverse effects on wound healing of the burn or hindlimb tenotomy sites", "setting": "burn/tenotomy mice; PX-478 100 mg/kg i.p. every other day", "value": "no adverse effects"}, {"measurement": "presence of mesenchymal progenitor cells and formation of mesenchymal condensation (H&E, PDGFRα and/or SOX9 immunostaining)", "setting": "burn/tenotomy mice; three weeks after burn/tenotomy, PX-478 or rapamycin treatment", "value": "substantially diminished"}, {"measurement": "Hif1α produced by mesenchymal cells isolated from tendon", "setting": "Hif1α", "value": "significantly diminished"}]}]}
